Pooled drug test results. Numbers come from NIAID ChemDB, via PubChem.

Shared fields: tests in culture

Zones are inhibition diameters on agar. MIC50, MIC90 and the like: level of inhibition, or share of isolates inhibited. Lines come from different laboratories, so protocols vary. ECn: concentration that inhibits the pathogen or its effect by n%. An empty or dashed field is not shown.

smiles,endpoint,tested at,strain or isolate,method,species,result
O=C(O)/C=C/c1ccccc1,EC50,,ATCC 22019,broth dilution / turbidity,Candida parapsilosis,0.18 µM
CCOC(=O)C1C(c2ccccc2)CC(c2ccccc2)=CC12NCCN2,MIC,,,,Candida neoformans,100 µg/mL
C[C@@H]1[C@H](O)[C@@H](C)/C=C/C=C/CC/C=C/C=C/C=C/C=C/C(O[C@H]2O[C@H](C)[C@@H](O)[C@H](N)[C@@H]2O)CC2O[C@](O)(CC(O)C(O)CCC(O)CC(O)CC(O)CC(=O)O[C@H]1C)CC(O)C2C(=O)O,MIC,,CBS 12,broth dilution,Candida rugosa,1.9 µg/mL
O=Cc1cccc(O)c1O,EC50,,PYCC 2545,broth dilution / turbidity,Candida parapsilosis,0.09 µM
CCOC(=O)C1C(c2ccc(C)cc2)CC(c2ccccc2)=CC12NCCN2,MIC,,,,Candida neoformans,25 µg/mL
CO[C@H]1C[C@H](O[C@H]2CC[C@@]3(C)C(=CC[C@@H]4[C@@H]3CC[C@]35C(=O)O[C@H](C)[C@H]3C(=O)C[C@]45O)C2)O[C@H](C)[C@H]1O,EC50,,,broth dilution / turbidity,Candida guilliermondii,>100 µg/mL
CCOC(=O)C1C(c2ccc(F)cc2)CC(c2ccccc2)=CC12NCCN2,MIC,,,,Candida neoformans,50 µg/mL
C=CCOc1ccc(C2CC(=O)c3c(O)cc(O)cc3O2)cc1,zone,100 µg/mL,Candida inconspicua,agar diffusion / agar,Candida spp.,0 mm
O=Cc1cc(O)ccc1O,EC50,,PYCC 2705,broth dilution / turbidity,Candida lusitaniae,0.35 µM
Cc1ccc(C(C)C)cc1O,MIC,,,broth dilution,Candida dubliniensis,250 µg/mL
CCOC(=O)C1C(c2ccc(C)cc2)CC(c2ccc(Cl)cc2)=CC12NCCN2,MIC,,Strains 6 and 6,,Candida spp.,25 µg/mL
C=CCc1ccc(OC)c(OC)c1,MIC,,,broth dilution,Candida dubliniensis,3830 µg/mL
Nc1[nH]c(=O)ncc1F,MIC90,,19 isolates,,Candida tropicalis,0.12 µg/mL
O=c1c(O)c(-c2ccc(O)c(O)c2)oc2cc(O)cc(O)c12,MIC50,,Clinical isolate 1,broth dilution,Candida tropicalis,>128 µg/mL
C[C@H]1[C@H](O)[C@@H](C)/C=C/C=C/C=C/C=C/C=C/C=C/C=C/[C@H](O[C@@H]2O[C@H](C)[C@@H](O)[C@H](N)[C@@H]2O)C[C@@H]2O[C@](O)(C[C@@H](O)C[C@@H](O)CC[C@H](O)[C@@H](O)C[C@@H](O)CC(=O)O[C@H]1C)C[C@H](O)[C@H]2C(=O)O,MIC90,,77 isolates,,Candida glabrata,2 µg/mL
COc1cc(C[C@H](C)[C@H](C)Cc2ccc(O)c(O)c2)ccc1O,MIC100,,CCC 127-2000,broth dilution,Candida albicans,62.5 µg/mL
CC(=O)N1CCN(c2ccc(OC[C@H]3CO[C@](Cn4ccnc4)(c4ccc(Cl)cc4Cl)O3)cc2)CC1,MIC,,Isogenic isolate 9 (25X),,Candida albicans,≤0.008 µg/mL
Clc1ccc(COC(Cn2ccnc2)c2ccc(Cl)cc2Cl)cc1,MIC50,,19 isolates,,Candida tropicalis,4 µg/mL
C[C@@H]1[C@H](O)[C@@H](C)/C=C/C=C/CC/C=C/C=C/C=C/C=C/C(O[C@H]2O[C@H](C)[C@@H](O)[C@H](N)[C@@H]2O)CC2O[C@](O)(CC(O)C(O)CCC(O)CC(O)CC(O)CC(=O)O[C@H]1C)CC(O)C2C(=O)O,MFC100,,LM 759,broth dilution,Candida tropicalis,64 µg/mL
CCOC(=O)C1C(c2ccc(OC)cc2)CC(c2ccccc2)=CC12NCCN2,MIC,,,,Candida neoformans,25 µg/mL
Clc1ccc(CSC(Cn2ccnc2)c2ccc(Cl)cc2Cl)cc1,MIC90,,19 isolates,,Candida tropicalis,4 µg/mL
COC(=O)[C@H]1[C@@H]2C[C@@H](O[C@@H]3O[C@H](C)[C@@H](O)[C@H](N)[C@@H]3O)/C=C/C=C/C=C/C=C/C=C/C=C/C=C/[C@H](C)[C@@H](O)[C@H](C)[C@H](C)OC(=O)C[C@H](O)C[C@H](O)[C@@H](O)CC[C@H](O)C[C@H](O)C[C@](O)(C[C@@H]1O)O2,MIC,,Clinical isolates,,Candida spp.,1 µg/mL
CC(C)=CCOc1ccc(C2CC(=O)c3ccc(O)cc3O2)cc1,zone,100 µg/mL,Candida inconspicua,agar diffusion / agar,Candida spp.,0 mm
CO[C@H]1C[C@H](O[C@H]2[C@@H](OC)C[C@H](O[C@H]3[C@@H](OC)C[C@H](O[C@H]4CC[C@@]5(C)C(=CC[C@H]6C7=CC(=O)[C@@H]8[C@@H](C)OC(=O)[C@]78CC[C@@H]65)C4)O[C@@H]3C)O[C@@H]2C)O[C@H](C)[C@H]1O,EC50,,,broth dilution / turbidity,Candida guilliermondii,>100 µg/mL
Clc1ccc(C(Cn2ccnc2)OCc2c(Cl)cccc2Cl)c(Cl)c1,MIC90,,19 isolates,,Candida tropicalis,2 µg/mL
CO[C@H]1C[C@H](O[C@H]2CC[C@@]3(C)C(=CC[C@@H]4[C@@H]3CC[C@]35C(=O)O[C@H](C)[C@H]3C(=O)C[C@]45O)C2)O[C@H](C)[C@H]1O[C@H]1C[C@H](OC)[C@H](O[C@H]2C[C@H](OC)[C@H](O[C@H]3C[C@H](OC)[C@H](O[C@@H]4C[C@@H](OC)[C@@H](OC5O[C@H](CO)[C@@H](O)[C@H](O)[C@H]5O)[C@H](C)O4)[C@@H](C)O3)[C@@H](C)O2)[C@@H](C)O1,EC50,,,broth dilution / turbidity,Candida guilliermondii,50 µg/mL
Cc1cccc(O)c1,MIC,,,broth dilution,Candida dubliniensis,210 µg/mL
Nc1nc(=O)n([C@H]2CS[C@@H](CO)O2)cc1F,MIC50,,17 isolates,,Candida krusei,32 µg/mL
C=CCc1ccc(O)c(-c2ccc(O)c(CC=C)c2)c1,MIC,,YL 313,broth dilution,Candida albicans,64 µg/mL
COc1cc(C=O)ccc1O,MIC,,,broth dilution,Candida dubliniensis,130 µg/mL
CO[C@H]1C[C@H](O[C@H]2CC[C@@]3(C)C(=CC[C@H]4C5=CC(=O)[C@@H]6[C@@H](C)OC(=O)[C@]56CC[C@@H]43)C2)O[C@H](C)[C@H]1O,EC50,,,broth dilution / turbidity,Candida guilliermondii,>100 µg/mL
CC(=O)N1CCN(c2ccc(OC[C@H]3CO[C@](Cn4ccnc4)(c4ccc(Cl)cc4Cl)O3)cc2)CC1,MIC90,,24 clinical isolates,broth dilution,Candida guilliermondii,0.062 µg/mL
c1ccc([Se][Se]c2ccccc2)cc1,MFC,,ATCC 66035,broth dilution,Candida lusitaniae,>64 µg/mL
COc1cc(C2CC(=O)c3c(O)cc(O)cc3O2)ccc1OCC=C(C)C,zone,100 µg/mL,Candida inconspicua,agar diffusion / agar,Candida spp.,0 mm
CCC(C)n1ncn(-c2ccc(N3CCN(c4ccc(OC[C@H]5CO[C@](Cn6cncn6)(c6ccc(Cl)cc6Cl)O5)cc4)CC3)cc2)c1=O,MIC90,,52 clinical isolates,broth dilution,Candida parapsilosis,0.25 µg/mL
CO[C@H]1C[C@H](O[C@H]2CC[C@@]3(C)C(=CC[C@H]4C5=CC(=O)[C@@H]6[C@@H](C)OC(=O)[C@]56CC[C@@H]43)C2)O[C@H](C)[C@H]1O[C@H]1C[C@H](OC)[C@H](O[C@@H]2C[C@@H](OC)[C@@H](O[C@@H]3O[C@H](CO)[C@@H](O)[C@H](O)[C@H]3O)[C@H](C)O2)[C@@H](C)O1,EC50,,,broth dilution / turbidity,Candida guilliermondii,100 µg/mL

A second listing of 3 rows from above:

smiles | endpoint | tested at | strain or isolate | method | species | result
CCOC(=O)C1C(c2ccc(C)cc2)CC(c2ccc(Cl)cc2)=CC12NCCN2 | MIC |  | Strains 6 and 6 |  | Candida spp. | 25 µg/mL
O=C(O)/C=C/c1ccccc1 | EC50 |  | ATCC 22019 | broth dilution / turbidity | Candida parapsilosis | 0.18 µM
CCOC(=O)C1C(c2ccc(C)cc2)CC(c2ccccc2)=CC12NCCN2 | MIC |  |  |  | Candida neoformans | 25 µg/mL